This is a selection; strong and weak results do not stand in their true shares. Entries with a potency or affinity are not part of this list. Activity calls are given as the source filed them. How the calls were made is not given here.

This assay can be described thus: Inhibition of PhoP regulon, Salmonella typhi GFP reporter cells, confirmation, 4 h (AID 1850).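 Further: 0% = induced wells with vehicle and 100% = uninduced wells.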 The following applies: Salmonella Typhi PhoP-promoter GFP reporter, fluorescence, at 50 µM, active compounds read high.
Consider `COc1cccc(C(=O)N(c2cc(C)cc(C)c2)C2CCN(C(=O)OC(C)(C)C)CC2)c1`, for which the inhibition is inactive: 7.01%.
For `COc1cc(OC)cc(C(=O)NCC2(N3CCOCC3)CCCCC2)c1` the value was inactive: 0.12%; for `CCC(CO)(C(=O)OC1CN2CCC1CC2)c1ccccc1` (stereo not given), inactive: 7%; for `CN1CCC(Nc2ccc(Cl)cc2)CC1`, inactive: -2.38%.
As to `CCCOc1ccc(C)cc1CN(CCCl)CCCl`, the inhibition was inactive: 5.19%.
`CN1CCC(Nc2ccc(F)c(Cl)c2)CC1`: the inhibition is inactive: -3.94%.
Regarding `CCOc1ncccc1C(=O)NCC1(N2CCOCC2)CCCCC1`, the inhibition was inactive: 6.81%.
Then `O=C(O)C1(Nc2ccccc2)CCN(Cc2ccccc2)CC1`, with inactive: -0.89%; and `CC(C)(C)OC(=O)N1CCC(Nc2ccccc2)CC1`, with inactive: 3.5%; and `CCCOc1ccc(C(=O)NCC2(N(C)C)CCCCC2)cc1`, with inactive: 0.13%.
For the compound `CCN1CCC(Nc2cccc(F)c2)CC1`, the inhibition is inactive: -3.98%.
With `CN(C)c1ccc(C(=O)NCC2(N3CCCCC3)CCCCC2)cc1`, the inhibition was inactive: 3.82%.
For `COc1cc(OC)cc(C(=O)NCC2(N3CCCCC3)CCCCC2)c1`, the inhibition was inactive: -5.54%.
With `Fc1ccccc1NC1CCN(Cc2ccccc2)CC1`, the inhibition is inactive: 1.56%.
As for `Cc1ccc(C(=O)NCC2(N3CCCCC3)CCCCC2)o1`, the inhibition was inactive: 12.5%.
`CN(C)C1(CNC(=O)c2cccc(C#N)c2)CCCCC1`: the inhibition was inactive: 11.2%.
Consider `CCCN1CCC(Nc2cc(OC)cc(OC)c2)CC1`, for which the inhibition is inactive: -1.14%.
On to `c1ccc(CN2CCC(Nc3ccccc3)CC2)cc1`, for which the inhibition was inactive: -13.9%.
Take `N#Cc1ccc(C(=O)NCC2(N3CCCCC3)CCCCC2)cc1`: the inhibition was inactive: -6.12%.
On to `CC(C)(C)OC(=O)N1CCC(N(C(=O)c2ccccc2)c2ccc(Cl)cc2)CC1`, for which the inhibition was inactive: -0.77%.
For `CCOC(=O)N1CCC(Nc2ccc(C)cc2)CC1` the value was inactive: -5.1%; for `N/C(=N\O)c1c(N)no[n+]1[O-]`, inactive: -12.3%.
Regarding `CCc1cc(C(=O)NCC2(N3CCCCC3)CCCCC2)sc1C`, the inhibition was inactive: -0.39%.
Turning to `O=C(OC1CN2CCC1CC2)C1c2ccccc2C=Cc2ccccc21` (stereo not given), the inhibition is inactive: -5.21%.
As for `COc1ccc(C(=O)NCC2(N3CCOCC3)CCCCC2)cc1OC`, the inhibition was inactive: 10.9%.
Consider `CN1CCC(Nc2cccc(F)c2)CC1`, for which the inhibition was inactive: 1.34%.
Take `CCCOc1ccc(C(=O)NCC2(N(C)C)CCCCC2)cc1OC`: the inhibition is inactive: 1.99%.
For the compound `CC(C)c1ccc(NC2CCN(C(=O)OC(C)(C)C)CC2)cc1`, the inhibition was inactive: -2.54%.
For `CN(C)c1cccc(C(=O)NCC2(N3CCCCC3)CCCCC2)c1` the value was inactive: 8.54%; for `COc1ccc(CN(CCCl)CCCl)cc1Cl`, inactive: 5.77%.

For orientation: inhibition means the change of the read-out against control, counted positive when it falls.

The record behind these values is PubChem BioAssay AID1850 (Southern Research Specialized Biocontainment Screening …, 2009).
